Measured values from several laboratories, pooled; numbers as filed in NIAID ChemDB.

All rows: growth or infection tests; species: Adenovirus

An empty or dashed field is not shown.

structure,strain,measure,cells,read by,tested at,value
Nc1ccn(C[C@@H](CO)OCP(=O)(O)O)c(=O)n1,TYPE 4,MIC,-,-,-,3 µg/mL
O=[N+]([O-])c1cc([N+](=O)[O-])c2ccc(S(=O)(=O)O)cc2c1O,TYPE 3,inhibition,Human amnion AV3 cells,cytopathic effect,10 µg/mL,15%
CSc1nsc(-c2ccccc2Cl)c1C#N,TYPE 2,EC50,HEP-2,plaque count,-,>5 µM
O=S(=O)(O)c1ccc2ccc(S(=O)(=O)O)cc2c1,TYPE 3,inhibition,Human embryonic lung cells,cytopathic effect,50 µg/mL,0%
Nc1ncnc2c1ncn2C[C@@H](CO)OCP(=O)(O)O,TYPE 2,MIC,-,-,-,0.3 µg/mL
O=S(=O)([O-])c1ccc(O)c2ccccc12,TYPE 3,inhibition,Human embryonic lung cells,cytopathic effect,5 µg/mL,0%
CC1(C(=O)O)CCC2(C)CCC3(C)C(=CC(=O)C4C5(C)CCC(OC(=O)C6CCCCC6C(=O)O)C(C)(C)C5CCC43C)C2C1,TYPE 5,EC99,-,virus yield,-,150 µM
Cc1cc(-c2ccc(N=Nc3c(N)c(S(=O)(=O)O)cc4cc(S(=O)(=O)O)ccc34)c(C)c2)ccc1N=Nc1c(N)ccc2cc(S(=O)(=O)O)ccc12,TYPE 3,inhibition,Human embryonic lung cells,cytopathic effect,5 µg/mL,0%
CSc1nsc(-c2ccccc2)c1C#N,TYPE 2,EC50,HEP-2,plaque count,-,>20 µM
O=C(O)c1ccc(S(=O)(=O)[O-])cc1C(=O)O,TYPE 3,inhibition,Human embryonic lung cells,cytopathic effect,10 µg/mL,0%
Nc1nc2c(ccn2[C@@H]2C[C@H](CO)[C@@H](O)[C@H]2O)c(=O)[nH]1,-,MIC,-,-,-,>100 µg/mL
CSc1nsc(-c2cccnc2)c1C#N,TYPE 2,EC50,HEP-2,plaque count,-,>20 µM
Nc1cnn([C@@H]2O[C@H](CO)[C@@H](O)[C@H]2O)c(=O)n1,TYPE 5,inhibition,HEP-2,-,8 µg/mL,100%
N#Cc1c(Cl)nsc1Cl,TYPE 2,EC50,HEP-2,plaque count,-,>4 µM
COc1cc(-c2ccc(N=Nc3ccc4c(S(=O)(=O)O)cc(S(=O)(=O)O)c(N)c4c3O)c(OC)c2)ccc1N=Nc1ccc2c(S(=O)(=O)O)cc(S(=O)(=O)O)c(N)c2c1O,TYPE 3,inhibition,Human amnion AV3 cells,cytopathic effect,10 µg/mL,0%
CSc1nsc(-c2cccs2)c1C#N,TYPE 2,EC50,HEP-2,plaque count,-,>6 µM
COC(=O)[C@H]1[C@@H]2C[C@@H](O[C@@H]3O[C@H](C)[C@@H](O)[C@H](N)[C@@H]3O)/C=C/C=C/C=C/C=C/C=C/C=C/C=C/[C@H](C)[C@@H](O)[C@H](C)[C@H](C)OC(=O)C[C@H](O)C[C@H](O)[C@@H](O)CC[C@H](O)C[C@H](O)C[C@](O)(C[C@@H]1O)O2,TYPE 4,inhibition,HFF,plaque count,10 µg/mL,3%
CSc1nsc(-c2cc[n+](C)cc2)c1C#N,TYPE 2,EC50,HEP-2,plaque count,-,>1000 µM
Cc1ccc(S(=O)(=O)O)cc1.N/C(=N\N=C\c1cccc2c([N+](=O)[O-])cccc12)NO,ATCC (TYPE 8),EC50,A549,plaque count,-,3.5 µM

A second listing of 3 rows from above:

structure	strain	measure	cells	read by	tested at	value
O=C(O)c1ccc(S(=O)(=O)[O-])cc1C(=O)O	TYPE 3	inhibition	Human embryonic lung cells	cytopathic effect	10 µg/mL	0%
CSc1nsc(-c2ccccc2)c1C#N	TYPE 2	EC50	HEP-2	plaque count	-	>20 µM
O=S(=O)(O)c1ccc2ccc(S(=O)(=O)O)cc2c1	TYPE 3	inhibition	Human embryonic lung cells	cytopathic effect	50 µg/mL	0%

ECn: concentration that inhibits the pathogen or its effect by n%. Inhibition is in % at the dose shown (toxicity tests: loss of growth or viability). Lines come from different laboratories, so protocols vary.